Pooled drug test results. Numbers come from NIAID ChemDB, via PubChem.

Shared fields: tests in culture

Lines come from different laboratories, so protocols vary. A number after MIC or MFC names an inhibition level or a share of isolates. Blank or dashed fields: not listed here. Zone: diameter of growth inhibition. Percent inhibition refers to the dose given; in toxicity tests it is the harm to the cells. ECn: concentration that inhibits the pathogen or its effect by n%.

compound,strain,dose,endpoint,method,conditions,agent,cells,result
Nc1nc2c(ncn2CCC(CO)CO)c(=O)[nH]1,NEW YORK 1,,EC50,plaque count,,Bovine herpesvirus 2,BHK-21,1.2 µg/mL
CCC[C@H](O)C[C@@H]1CC[C@H](C)CCCCC(=O)N(C)[C@@H](Cc2ccc(OCCO)cc2)C(=O)O1,PDR5,,MIC,,,Saccharomyces cerevisiae,,12.5 µg/mL
CCCCCCN=C(N)c1ccc(N2CCN(c3ccccc3)CC2)cc1,,50 µg/mL,inhibition,,,Pneumocystis carinii,,91%
O=c1cnn([C@@H]2O[C@H](CO)[C@@H](O)[C@H]2O)c(=O)[nH]1,Caribbean (type 4),,EC50,plaque count,,Dengue virus,LLC-MK2,<1 µg/mL
CCC(C)CN=C(N)c1ccc(N2CCN(c3ccccc3)CC2)cc1,,50 µg/mL,inhibition,,,Pneumocystis carinii,,97%
O=C1C=CN(COCCO)S(=O)(=O)N1COCCO,,,EC50,,,Semliki Forest virus,VERO,>400 µg/mL
NC(=O)NNC(=O)Nc1cc(C(F)(F)F)cc(C(F)(F)F)c1,KL21,,MIC,,,Klebsiella pneumoniae,,>446 µM
C=CCc1ccc(O)c(OC)c1,3220,,MIC90,turbidity,,Candida tropicalis,,500 µg/mL
CCOC(=O)c1sc2cc(-c3ccc(OC)cc3)oc(=O)c2c1N,A-280,,MIC,,,Trichophyton mentagrophytes,,>100 µg/mL
N#Cc1cc([N+](=O)[O-])ccc1Oc1ccc(Cl)c(Cl)c1,TYPE A21,3.125 µg/mL,inhibition,,,Coxsackie virus,VERO,100%
CSc1cc(-c2ccc(Cl)cc2)c(C(=O)O)s1,A-280,,MIC,,,Trichophyton mentagrophytes,,>100 µg/mL
CC1(C)S[C@@H]2[C@H](NC(=O)[C@H](N)c3ccc(O)cc3)C(=O)N2[C@H]1C(=O)O,434 strains,,MIC50,,,Haemophilus influenzae,,0.25 µg/mL
O=C(Nc1cccc(C2=NCCN2)c1)Nc1cccc(C2=NCCN2)c1,KL21,,MIC,,,Klebsiella pneumoniae,,300 µM
CCC(CC)N=C(N)c1ccc(N2CCN(c3ccccc3)CC2)cc1,,50 µg/mL,inhibition,,,Pneumocystis carinii,,97%
CCCCCCc1ccc(NC(=O)NNC(=O)c2ccncc2)cc1,My 235/80,,MIC100,broth dilution,14 d,Mycobacterium kansasii,,125 µM
CCC(CC)[C@H](NC(C)=O)[C@@H]1[C@H](O)[C@@H](C(=O)O)C[C@H]1N=C(N)N,Influenza A/Victoria/3/75 (H3N2),,EC50,,,Influenza A virus,MDCK,0.1 µM
O=C(NNC(=O)c1ccncc1)Nc1ccc(F)c(C(F)(F)F)c1,My 6509/96,,MIC100,broth dilution,21 d,Mycobacterium kansasii,,125 µM
O=C(Nc1cc(C(F)(F)F)cc(C(F)(F)F)c1)NS(=O)(=O)c1ccc(OC(F)(F)F)cc1,ES142,,MIC,,,Escherichia coli,,>300 µM
COc1cc(OC)c(NC(=S)Nc2ccc(NC(=O)c3ccco3)cc2)cc1Cl,Colburn,,EC50,,,Simian cytomegalovirus,HFF,>20 µM
CN=C(N)c1ccc(N2CCN(c3ccccc3)CC2)cc1,,50 µg/mL,inhibition,,,Pneumocystis carinii,,62%
CCOC(=O)c1sc(SC)c(C#N)c1O,A-280,,MIC,,,Trichophyton mentagrophytes,,50 µg/mL
O=C(NNC(=O)c1ccncc1)Nc1ccc(F)cc1Br,MY330/88,,MIC100,broth dilution,21 d,Mycobacterium avium,,>125 µM
CC(=O)OCCOCN1C=CC(=O)N(COCCOC(C)=O)S1(=O)=O,TYPE 1,,EC50,,,Reovirus,VERO,>400 µg/mL
CCOC(=O)c1sc2cc(-c3cccc([N+](=O)[O-])c3)oc(=O)c2c1N,A-280,,MIC,,,Trichophyton mentagrophytes,,>100 µg/mL
O=C(Nc1ccc(C(F)(F)F)cc1)NN(CC(O)CN1CCOCC1)C(=O)Nc1ccc(C(F)(F)F)cc1,ES142,,MIC,,,Escherichia coli,,>300 µM
CC[C@H]1OC(=O)[C@H](C)[C@@H](O[C@H]2C[C@@](C)(OC)[C@@H](O)[C@H](C)O2)[C@H](C)[C@@H](O[C@@H]2O[C@H](C)C[C@H](N(C)C)[C@H]2O)[C@](C)(O)C[C@@H](C)/C(=N\OCOCCOC)[C@H](C)[C@@H](O)[C@]1(C)O,595 strains,,MIC50,,,Streptococcus pneumoniae,,≤0.25 µg/mL
Cc1ccc2c(c1)C(C=NNC(=O)N1c3ccccc3C=Cc3ccccc31)C(c1ccccc1)=N2,MTCC-3567,750 µg/mL,zone,agar diffusion,,Aspergillus oryzae,,12 mm
CCOC(=O)c1sc(SC)cc1-c1ccc(-c2cccnc2)cc1,A-280,,MIC,,,Trichophyton mentagrophytes,,25 µg/mL
Nc1nc2c(ncn2COC(CO)CO)c(=O)[nH]1,AD169,1 µM,inhibition,hybridisation,,Cytomegalovirus,HFF,33%
COc1c(N2C[C@@H]3CCCN[C@@H]3C2)c(F)cc2c(=O)c(C(=O)O)cn(C3CC3)c12,2451 isolates (penicillin-susceptible),,MIC90,,,Streptococcus pneumoniae,,0.22 µg/mL
CC(=O)OCCOCN1C(=O)C=CN(COCCO)S1(=O)=O,TYPE 1,,EC50,,,Reovirus,VERO,>400 µg/mL
COc1cc(OC)c(NC(=S)Nc2ccc(NC(C)=O)cc2)cc1Cl,,,EC50,,,Rhesus cytomegalovirus,HFF,>20 µM
CSc1cc(-c2ccc(C)cc2)c(C(=O)O)s1,A-280,,MIC,,,Trichophyton mentagrophytes,,>100 µg/mL
CCNC(=O)[C@@H](NC(=O)Cc1ccccc1)[C@@H]1N[C@@H](C(=O)NCCNC(=O)[C@@H]2N[C@@H]([C@H](NC(=O)Cc3ccccc3)C(=O)NCC)SC2(C)C)C(C)(C)S1,434 strains,,MIC90,,,Haemophilus influenzae,,1 µg/mL
CCN=C(N)c1ccc(N2CCN(c3ccccc3)CC2)cc1,,50 µg/mL,inhibition,,,Pneumocystis carinii,,83%
O=C(CCC(=O)Nc1cc(C(F)(F)F)cc(C(F)(F)F)c1)Nc1cc(C(F)(F)F)cc(C(F)(F)F)c1,KL21,,MIC,,,Klebsiella pneumoniae,,>300 µM
Nc1cnn([C@@H]2O[C@H](CO)[C@@H](O)[C@H]2O)c(=O)n1,TYPE 5,16 µg/mL,inhibition,,,Adenovirus,HEP-2,100%
CCC(CC)[C@H](NC(C)=O)[C@@H]1C[C@@H](C(=O)O)C[C@H]1N=C(N)N,Influenza A/Virginia/2/88R (H3N2),,EC50,,,Influenza A virus,MDCK,<0.01 µM
C[C@@]1(O)[C@H](O)[C@@H](CO)O[C@H]1n1ccn2c(=O)nc(N)nc12,,,EC50,,,West Nile virus,,>100 µM
Cc1ccc(NC(=O)NNC(=O)c2ccncc2)cc1,My 6509/96,,MIC100,broth dilution,7 d,Mycobacterium kansasii,,62.5 µM
O=C(O)c1cc(-n2cccc2)ccc1Cl,93BR020 X4R5 CLADE F,,EC90,p24,,HIV-1,PBMC + MT-2,8.55 µM
O=C(NN1C(=O)CSC1C1C(c2ccccc2)=Nc2ccccc21)N1c2ccccc2C=Cc2ccccc21,MTCC-3567,1000 µg/mL,zone,agar diffusion,,Aspergillus oryzae,,13 mm
CCCN=C(N)c1ccc(N2CCN(c3ccccc3)CC2)cc1,,50 µg/mL,inhibition,,,Pneumocystis carinii,,88%
CCOC(=O)c1sc2cc(-c3ccc(Cl)cc3)oc(=O)c2c1N,A-280,,MIC,,,Trichophyton mentagrophytes,,>100 µg/mL
NC1=CC(N)=NS(=O)(=O)N1COCCO,,,EC50,,,Semliki Forest virus,VERO,>400 µg/mL
Nc1nc(=O)n2ccn(C3O[C@H](CO)[C@@H](O)[C@H]3O)c2n1,TYPE 2,,EC50,,,Dengue virus,,>100 µM
CCOC(=O)c1sc(SC)cc1-c1ccc(C)cc1,A-280,,MIC,,,Trichophyton mentagrophytes,,>100 µg/mL
CC(=O)OCCOCN1C(N)=CC(N)=NS1(=O)=O,TYPE 1,,EC50,,,Reovirus,VERO,>400 µg/mL
CCCCCCCCN=C(N)c1ccc(N2CCN(c3ccccc3)CC2)cc1,,10 µg/mL,inhibition,,,Pneumocystis carinii,,93%
Cc1ccc2c(c1)C(C1SCC(=O)N1NC(=O)N1c3ccccc3C=Cc3ccccc31)C(c1ccccc1)=N2,MTCC-1782,500 µg/mL,zone,agar diffusion,,Aspergillus terreus,,11 mm
CCCC(CCC)C(NC(C)=O)C1CC(C(=O)O)CC1N=C(N)N,Influenza A/Beijing/32/92 (H3N2),,EC50,,,Influenza A virus,MDCK,0.05 µM
Nc1nc(=O)n2ccn([C@@H]3O[C@H](CO)C[C@H]3O)c2n1,TYPE 2,,EC50,,,Dengue virus,,>100 µM
NC(=NCCCc1ccccc1)c1ccc(N2CCN(c3ccccc3)CC2)cc1,,0.1 µg/mL,inhibition,,,Pneumocystis carinii,,0%
O=C(NNC(=O)NC1CCCCC1)Nc1cc(C(F)(F)F)cc(C(F)(F)F)c1,KL21,,MIC,,,Klebsiella pneumoniae,,100 µM
CN[C@H]1CC[C@@H](c2ccc(Cl)c(Cl)c2)c2ccccc21,163.99,,MFC,broth dilution,,Cryptococcus neoformans,,6 µg/mL
CCCCCCCCCCCCN=C(N)c1ccc(N2CCN(c3ccccc3)CC2)cc1,,0.1 µg/mL,inhibition,,,Pneumocystis carinii,,0%

For reference, 8 entries again:

Cc1ccc(NC(=O)NNC(=O)c2ccncc2)cc1 ; strain: My 6509/96 ; endpoint: MIC100 ; method: broth dilution ; conditions: 7 d ; agent: Mycobacterium kansasii ; result: 62.5 µM
CSc1cc(-c2ccc(C)cc2)c(C(=O)O)s1 ; strain: A-280 ; endpoint: MIC ; agent: Trichophyton mentagrophytes ; result: >100 µg/mL
CCOC(=O)c1sc2cc(-c3ccc(Cl)cc3)oc(=O)c2c1N ; strain: A-280 ; endpoint: MIC ; agent: Trichophyton mentagrophytes ; result: >100 µg/mL
O=C(O)c1cc(-n2cccc2)ccc1Cl ; strain: 93BR020 X4R5 CLADE F ; endpoint: EC90 ; method: p24 ; agent: HIV-1 ; cells: PBMC + MT-2 ; result: 8.55 µM
CCC[C@H](O)C[C@@H]1CC[C@H](C)CCCCC(=O)N(C)[C@@H](Cc2ccc(OCCO)cc2)C(=O)O1 ; strain: PDR5 ; endpoint: MIC ; agent: Saccharomyces cerevisiae ; result: 12.5 µg/mL
COc1cc(OC)c(NC(=S)Nc2ccc(NC(=O)c3ccco3)cc2)cc1Cl ; strain: Colburn ; endpoint: EC50 ; agent: Simian cytomegalovirus ; cells: HFF ; result: >20 µM
O=C(NNC(=O)NC1CCCCC1)Nc1cc(C(F)(F)F)cc(C(F)(F)F)c1 ; strain: KL21 ; endpoint: MIC ; agent: Klebsiella pneumoniae ; result: 100 µM
Nc1nc(=O)n2ccn([C@@H]3O[C@H](CO)C[C@H]3O)c2n1 ; strain: TYPE 2 ; endpoint: EC50 ; agent: Dengue virus ; result: >100 µM